US9284595B2 (priority 2012, dated 2016)

By UniProt entry, the sequences of proteins in these tests, tags left out. Where a name states a change or a piece, a line headed by the entry shows the natural chain unless it says otherwise.
UniProt P0DPI0: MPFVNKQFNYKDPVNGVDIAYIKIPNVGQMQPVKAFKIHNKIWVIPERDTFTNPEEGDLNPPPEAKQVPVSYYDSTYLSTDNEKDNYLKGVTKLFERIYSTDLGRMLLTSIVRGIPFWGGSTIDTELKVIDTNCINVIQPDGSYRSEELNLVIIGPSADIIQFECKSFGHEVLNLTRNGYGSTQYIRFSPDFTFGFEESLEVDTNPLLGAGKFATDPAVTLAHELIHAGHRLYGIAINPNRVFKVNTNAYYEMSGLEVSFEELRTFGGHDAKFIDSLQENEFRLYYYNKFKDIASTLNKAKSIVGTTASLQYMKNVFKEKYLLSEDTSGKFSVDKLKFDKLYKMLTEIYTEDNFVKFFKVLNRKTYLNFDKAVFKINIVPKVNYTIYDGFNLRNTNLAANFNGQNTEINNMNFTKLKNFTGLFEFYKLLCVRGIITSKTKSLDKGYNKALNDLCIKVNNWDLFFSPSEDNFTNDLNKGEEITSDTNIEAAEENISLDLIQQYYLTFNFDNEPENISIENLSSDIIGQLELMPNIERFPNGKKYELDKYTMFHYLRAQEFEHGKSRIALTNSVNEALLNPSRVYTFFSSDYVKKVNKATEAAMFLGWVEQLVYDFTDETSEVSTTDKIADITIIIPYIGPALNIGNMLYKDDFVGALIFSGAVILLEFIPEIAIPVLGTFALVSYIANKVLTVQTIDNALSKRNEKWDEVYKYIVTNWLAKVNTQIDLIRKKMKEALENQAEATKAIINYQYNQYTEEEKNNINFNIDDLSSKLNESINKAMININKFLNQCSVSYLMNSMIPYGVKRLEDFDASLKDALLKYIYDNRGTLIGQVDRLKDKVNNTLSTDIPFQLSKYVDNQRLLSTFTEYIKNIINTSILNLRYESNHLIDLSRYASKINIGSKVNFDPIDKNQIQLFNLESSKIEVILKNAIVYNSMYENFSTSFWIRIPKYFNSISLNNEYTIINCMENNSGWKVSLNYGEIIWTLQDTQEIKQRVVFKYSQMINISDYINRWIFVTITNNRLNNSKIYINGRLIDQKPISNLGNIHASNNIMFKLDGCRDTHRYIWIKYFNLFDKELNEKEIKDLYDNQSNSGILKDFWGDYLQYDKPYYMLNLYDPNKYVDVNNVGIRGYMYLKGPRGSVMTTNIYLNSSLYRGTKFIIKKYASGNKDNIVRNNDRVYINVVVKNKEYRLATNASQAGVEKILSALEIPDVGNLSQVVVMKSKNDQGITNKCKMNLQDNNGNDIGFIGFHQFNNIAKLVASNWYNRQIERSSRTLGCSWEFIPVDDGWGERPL

Target: BoNT/A Holotoxin (Clostridium botulinum, UniProt P0DPI0)
Test: BoNT/A Holotoxin detection assay with TCEP, FilterMax F5
Format: biochemical
Details: 1 μM substrate, 5 ng Holotoxin

MDENLEQVSGIIGNLRHMALDMGNEIDTQNRQIDRIMEKADSN(KDabcyl)TRIDEANQRATKML(K5Fam)
detection of BoNT/A Holotoxin without TCEP (no TCEP): unable to detect BoNT/A Holotoxin
detection of BoNT/A Holotoxin with TCEP (varying concentrations of TCEP): detection of 5.0 ng BoNT A Holotoxin Complex
